Data on 47 molecules can be found in PubChem BioAssay AID588335 (The Scripps Research Institute Molecular Screening Center, 2011).

This is a selection; strong and weak results do not stand in their true shares. Active and inactive are the calls of the source. No stated cut-off is given here; in the data, active means inhibition above about 30%; inactive means the rest.

This test in a line: inhibition of GDH and TPI enzymes – biochemical, absorbance, full deck, artefact control for M. tuberculosis FBA inhibitor project, primary screen (AID 588335).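 Further: 0% = DMSO wells and 100% = wells lacking the enzyme.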 The conditions noted are these: GDH-TPI coupled enzyme counterscreen, NADH absorbance; at 4.8 µM; stronger effect = higher value. A general note: A counterscreen serves to expose hits that act by an unwanted route or on another target.
Regarding `O=C(NCC1(N2CCCCC2)CCCCC1)c1ccc(Cl)s1`, the inhibition was inactive: -6.49%.

In the case of `O=C(OC1CN2CCC1CC2)C1c2ccccc2Oc2ccccc21` (configuration not stated), the inhibition is inactive: 5.49%.

As to `COc1ccc(Cl)cc1C(=O)NCC1(N2CCOCC2)CCCCC1`, the inhibition was inactive: 7.69%.

In the case of `CCOC(=O)N1CCC(Nc2ccc(OC)cc2)CC1`, the inhibition is inactive: -3.88%.

In the case of `O=C(NCC1(N2CCCCC2)CCCCC1)c1ccc(Cl)nc1`, the inhibition was inactive: 10.9%.

Consider `Cc1cc(C)cc(N(C(=O)c2ccccc2)C2CCN(C(=O)OC(C)(C)C)CC2)c1`, for which the inhibition was inactive: 1.72%.

Regarding `O=C(NCC1(N2CCOCC2)CCCCC1)c1cc2ccccc2o1`, the inhibition was inactive: -3.13%.

As to `O=P1(N(CCCl)CCCl)SCCCS1`, the inhibition is inactive: -6.88%.

`CCCCOc1ccc(C(=O)NCC2(N3CCOCC3)CCCCC2)cc1`: the inhibition is inactive: 2.07%.

With `O=C(NCC1(N2CCCCC2)CCCCC1)c1ccc(F)cc1`, the inhibition was inactive: -9.96%.

With `COc1ccc(NC2CCN(CCc3ccccc3)CC2)c(OC)c1`, the inhibition was inactive: 0.42%.

For `CCOC(=O)N1CCC(Nc2ccc(F)cc2)CC1`, the inhibition was inactive: 2.56%.

Regarding `O=C1CCN(Cc2ccccc2)CC1`, the inhibition is inactive: 0%.

Turning to `CCOc1ccc(C)cc1CN(CCCl)CCCl`, the inhibition was inactive: 9.56%.

For `CCOC(=O)N1CCC(Nc2cccc(C)c2)CC1`, the inhibition is inactive: 6.99%.

As for `COc1cc(C(=O)NCC2(N(C)C)CCCCC2)ccc1OC(F)F`, the inhibition is inactive: 0%.

In the case of `Cc1ccc(C(=O)NCC2(N3CCCCC3)CCCCC2)o1`, the inhibition was inactive: -4.98%.

For the molecule `Fc1ccccc1NC1CCN(Cc2ccccc2)CC1`, the inhibition is inactive: 0%.

On to `Cc1ccc(NC2(C#N)CCN(Cc3ccccc3)CC2)cc1`, for which the inhibition is inactive: 3.02%.

Consider `CC(=O)N(c1ccccc1)C1CCNCC1`, for which the inhibition is inactive: 9.36%.

As to `COc1cc(OC)cc(C(=O)NCC2(N3CCCCC3)CCCCC2)c1`, the inhibition is inactive: -5.9%.

Consider `O=C(NCC1(N2CCCCC2)CCCCC1)c1ccco1`, for which the inhibition is inactive: 3.96%.

`CN(C)c1ccc(C(=O)NCC2(N3CCCCC3)CCCCC2)cc1`: the inhibition was inactive: 8.54%.

Consider `Cn1c(=O)[nH]cc(N(CCCl)CCCl)c1=O`, for which the inhibition is inactive: 0.88%.

`Cc1ccccc1NC1(C#N)CCN(Cc2ccccc2)CC1`: the inhibition is inactive: 2.29%.

Take `CCN1CCC(Nc2cccc(F)c2)CC1`: the inhibition was inactive: 7.91%.

For `CC(C)(C)OC(=O)N1CCC(Nc2ccccc2)CC1`, the inhibition is inactive: 1.27%.

As for `O=C(O)C1(Nc2ccccc2)CCN(Cc2ccccc2)CC1`, the inhibition was inactive: 5.71%.

For `CCCOc1ccc(C(=O)NCC2(N(C)C)CCCCC2)cc1`, the inhibition is inactive: -5.15%.

Regarding `CCOc1ncccc1C(=O)NCC1(N2CCOCC2)CCCCC1`, the inhibition was inactive: -6.06%.

Consider `CN1CCC(Nc2ccc(F)c(Cl)c2)CC1`, for which the inhibition was inactive: 8.63%.

Turning to `CN1CCC(Nc2ccc(Cl)cc2)CC1`, the inhibition is inactive: -2.48%.

As for `COc1cc(OC)cc(C(=O)NCC2(N3CCOCC3)CCCCC2)c1`, the inhibition was inactive: -10.4%.

Take `COc1cccc(C(=O)N(c2cc(C)cc(C)c2)C2CCN(C(=O)OC(C)(C)C)CC2)c1`: the inhibition is inactive: -5.17%.

Take `CCC(CO)(C(=O)OC1CN2CCC1CC2)c1ccccc1` (configuration not stated): the inhibition was inactive: 5.99%.

Take `COc1ccc(C(=O)NCC2(N3CCOCC3)CCCCC2)cc1OC`: the inhibition is inactive: 0%.

Take `COc1cc(C(=O)NCC2(N3CCOCC3)CCCCC2)cc(OC)c1C`: the inhibition is inactive: 2.2%.

For `O=C(NCC1(N2CCOCC2)CCCCC1)c1cc(Br)ccc1Cl`, the inhibition is inactive: 15.4%.

On to `O=C(OC1CN2CCC1CC2)C1c2ccccc2C=Cc2ccccc21` (configuration not stated), for which the inhibition is inactive: 14.2%.

As to `CCOC(=O)N1CCC(Nc2ccc(C)cc2)CC1`, the inhibition is inactive: -2.86%.

Regarding `N/C(=N\O)c1c(N)no[n+]1[O-]`, the inhibition is inactive: 7.63%.

As to `N#Cc1ccc(C(=O)NCC2(N3CCCCC3)CCCCC2)cc1`, the inhibition is inactive: 13.4%.

`CC(C)(C)OC(=O)N1CCC(N(C(=O)c2ccccc2)c2ccc(Cl)cc2)CC1`: the inhibition is inactive: 7.14%.

With `CN(C)C1(CNC(=O)c2cccc(C#N)c2)CCCCC1`, the inhibition was inactive: 6.03%.

Regarding `c1ccc(CN2CCC(Nc3ccccc3)CC2)cc1`, the inhibition is inactive: -1.51%.

Take `Cc1cc(N(CCCl)CCCl)ccc1C=O`: the inhibition is active: 40.5%.

For the molecule `CCCN1CCC(Nc2cc(OC)cc(OC)c2)CC1`, the inhibition is inactive: -3.85%.

A word on the inhibition: it is the drop in the measured response relative to a control, in per cent.
